Experimental findings from paper PMC3989234, “Introduction of Aromatic Ring-Containing Substituents in Cyclic Nucleotides Is Associated with Inhibition of Toxin Uptake by the Hepatocyte Transporters OATP 1B1 and 1B3” (PLoS ONE, 2014) are described below.

Amino acid sequences for entries named in this document (tags omitted).
UniProt Q9NPD5, whole entry: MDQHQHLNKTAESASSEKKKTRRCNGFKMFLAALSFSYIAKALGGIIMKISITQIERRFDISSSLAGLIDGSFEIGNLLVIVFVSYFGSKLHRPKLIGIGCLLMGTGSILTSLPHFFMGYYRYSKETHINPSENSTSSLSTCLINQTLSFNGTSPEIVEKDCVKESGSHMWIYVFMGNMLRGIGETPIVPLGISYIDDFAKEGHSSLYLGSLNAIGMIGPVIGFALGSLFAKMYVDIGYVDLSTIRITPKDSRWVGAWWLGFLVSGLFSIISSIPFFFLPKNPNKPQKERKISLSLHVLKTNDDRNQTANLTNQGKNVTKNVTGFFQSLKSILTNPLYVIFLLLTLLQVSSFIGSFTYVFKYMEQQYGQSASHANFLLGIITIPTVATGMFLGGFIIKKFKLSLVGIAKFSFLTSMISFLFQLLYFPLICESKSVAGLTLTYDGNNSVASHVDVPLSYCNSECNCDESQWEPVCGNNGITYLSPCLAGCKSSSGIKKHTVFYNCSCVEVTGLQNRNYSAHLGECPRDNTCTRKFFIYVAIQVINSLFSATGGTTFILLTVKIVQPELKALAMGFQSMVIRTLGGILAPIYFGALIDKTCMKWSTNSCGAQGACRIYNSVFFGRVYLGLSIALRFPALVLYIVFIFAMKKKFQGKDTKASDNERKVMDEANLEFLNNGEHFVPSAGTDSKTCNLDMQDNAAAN

The target of this data set is OATP1B3 (Homo sapiens, UniProt Q9NPD5). As to the kind of experiment: Inhibition of nodularin (Nod)-induced apoptosis in OATP1B3-transfected HEK293T cells. To be noted: read-out: OATP1B3 IC50 (inhibition of HEK293T-cell apoptosis induced by nodularin), Nod 0.6 µM, analog 15 min before Nod, 90 min coincubation, unit inferred.

Certain results were filed several times, with different values. The other results are left out here. The source may hold further records. The values listed for one entry do not match, cause unknown; some may be repeats, others may stem from another dose, organism or construct than stated. Some results are limits rather than exact numbers.

For `O=P1(O)OC[C@H]2O[C@@H](n3c(Sc4ccc(Cl)cc4)nc4c(Nc5ccccc5)ncnc43)[C@H](O)[C@@H]2O1`, the IC50 was < 10 µM and 3 µM.

As a reminder, the IC50 is the concentration needed to halve the response being measured.
